A mixed list of measured activities; the numbers were collected in NIAID ChemDB.

All rows: tests on isolated targets; agent: HIV-1; target: Integrase; endpoint: inhibition

Neighbouring rows are from separate reports. Percent inhibition refers to the dose given; in toxicity tests it is the harm to the cells. An empty or dashed field is not shown.

smiles | strain or isolate | read by | tested at | result
NC(N)=NS(=O)(=O)c1ccc(Nc2c3ccccc3nc3c(C(=O)NC(CO)(CO)CO)cccc23)cc1 | RF | 3′ processing | 100 µg/mL | 42.2%
CC[C@H](C)C(O)C(C)(O)/C=C/C1=CC2=CC(=O)[C@](C)(O)[C@H](O)[C@H]2CO1 | - | - | 100 µg/mL | 0%
Cc1ccc(N(CCCCl)S(=O)(=O)c2ccc3[nH]cc(C(=O)O)c(=O)c3c2)cc1 | - | strand transfer | 1000 µM | 74.51%
C=C(C)[C@H]1CCC[C@]2(CO)CC[C@@]3(C)[C@]4(C)CC[C@H]5C(C)(C)[C@@H](O)CC[C@]5(C)[C@H]4CC[C@]3(C)[C@@H]12 | - | ELISA / strand transfer | 25 µg/mL | 16.8%
CN/N=C(/c1nc2ccc([N+](=O)[O-])cc2[nH]c1=O)C(O)c1ccc(C(O)/C(=N/NC)c2nc3ccc([N+](=O)[O-])cc3[nH]c2=O)cc1 | RF | 3′ processing | 100 µg/mL | 35.5%
Oc1cc(O)c2c(c1)O[C@H](c1ccc(O)c(O)c1)[C@@H](O)C2 | - | 3′ processing | 100 µM | 65%
O=C(O)c1c[nH]c2ccc(S(=O)(=O)N3CCN(c4ccccc4F)CC3)cc2c1=O | - | strand transfer | 1000 µM | 73.9%
CN(C)CC/C=C1/c2ccccc2COc2ccc(CC(=O)O)cc21 | - | AlphaScreen | 10 µM | 10.76%
O=C(O)c1c[nH]c2ccc(S(=O)(=O)N3CCN(c4cccc(C(F)(F)F)c4)CC3)cc2c1=O | - | strand transfer | 1000 µM | 73.16%
CC(=O)O[C@H](C)[C@@H]1C2=C(C(=O)C[C@]1(C)O)C(=O)c1c(ccc(-c3ccc4c(c3O)C(=O)C3=C(C4=O)[C@@H]([C@@H](C)OC(C)=O)[C@@](C)(O)CC3=O)c1O)C2=O | RF | strand transfer | 100 µg/mL | 50%
O=c1oc2cc(O)ccc2c2ccc(O)cc12 | - | ELISA / strand transfer | 25 µg/mL | 9.9%
O/N=C1\C(=C\c2ccc3c(c2)OCO3)CCCC1C(NO)c1ccc2c(c1)OCO2 | RF | strand transfer | 100 µg/mL | 35.8%
CCCc1nc2c(C)cc(-c3nc4ccccc4n3C)cc2n1Cc1ccc(-c2ccccc2C(=O)O)cc1 | - | AlphaScreen | 10 µM | 3.03%
Cc1cc(C2(c3cc(C)c(O)c(CN(CC(=O)O)CC(=O)O)c3)OS(=O)(=O)c3ccccc32)cc(CN(CC(=O)O)CC(=O)O)c1O | RF | 3′ processing | 100 µg/mL | 57.7%
O=C(O)c1c[nH]c2ccc(S(=O)(=O)N3CCN(c4ccc(F)cc4)CC3)cc2c1=O | - | strand transfer | 1000 µM | 89.58%
COC(=O)/C=C/c1ccccc1 | - | strand transfer | 100 µM | 0%
CC(C)n1c(/C=C/[C@@H](O)C[C@@H](O)CC(=O)O)c(-c2ccc(F)cc2)c2ccccc21 | - | AlphaScreen | 10 µM | 15.45%
NC(CCSSCCC(N)P(=O)(O)O)P(=O)(O)O | RF | strand transfer | 100 µg/mL | 49.9%
O=c1oc2c(O)c(O)cc3c(=O)oc4c(O)c(O)cc1c4c23 | - | ELISA / strand transfer | 25 µg/mL | 21.1%